Test results: US20020115830A1 (WISCONSIN ALUMNI RESEARCH FOUNDATION, published 2002)

Legend:
[1] = target: T1, HIV-1 Gag expressed in HeLa cells in the presence of Vpu (vpu+ protease- proviral construct) (HIV-1); assay: GST pull-down on Glutathione-Sepharose, anti-Gag Western blot
T1 construct: also called Gag from HeLa cell lysates (vpu+ construct)

[2] = target: T2, HIV-1 Gag expressed in HeLa cells in the absence of Vpu (vpu- protease- proviral construct pHJ121) (HIV-1); assay: as above
T2 construct: also called Gag from HeLa cell lysates (vpu- construct)

B1: GST alone (enzyme)
chain: MSPILGYWKIKGLVQPTRLLLEYLEEKYEEHLYERDEGDKWRNKKFELGLEFPNLPYYIDGDVKLTQSMAIIRYIADKHNMLGGCPKERAEISMLEGAVLDIRYGVSRIAYSKDFETLKVDFLSKLPEMLKMFEDRLCHKTYLNGDHVTHPDFMLYDALDVVLYMDPMCLDAFPKLVCFKKRIEAIPQIDKYLKSSKYIAWPLQGWQATFGGGDHPPK
notes: also called glutathione-S-transferase; GST protein
binding result [1]: no binding (tested: GST approximately 0.5 uM) | binding result [2]: no binding (tested: GST approximately 0.5 uM)
